# For some assays here: The index is printed as in the source, without its formula.
# Legend:
# [1] = test system: influenza virus (A/WSN/33 (H1N1) strain); assay: CPE suppression effect confirmation test (influenza virus, RPMI 2650 cells), antiviral activity; format: cell-based
# [2] = test system: SARS-CoV-2 (hCoV-19/Japan/TY/WK-521/2020 strain); assay: CPE suppression effect confirmation test (SARS-CoV-2, Vero E6/TMPRSS2 cells), antiviral activity; format: cell-based
SMILES,Influenza SI (Selectivity Index) [1],SARS-CoV-2 SI (Selectivity Index) [2]
Nc1ncnn2c([C@@H]3O[C@](F)(CO)[C@@H](O)C3(F)F)ccc12 [Compound I-008],61.6,
N/C(=N\O)c1cc([C@@H]2N[C@H](CO)[C@@H](O)[C@H]2O)n2ncnc(N)c12 [Compound I-016],,>318
CC1(C)O[C@@H]2[C@H](O1)[C@@H](CO)N[C@H]2c1cc(/C=N/O)c2c(N)ncnn12 [Compound I-018],>472,
OC[C@H]1N[C@@H](c2ccc3c(NO)ncnn23)[C@H](O)[C@@H]1O [Compound I-020],>24.8,
Nc1ncnn2c([C@@H]3N[C@H](CO)[C@@H](O)[C@H]3O)cc(O)c12 [Compound I-022],>4.76,125
CC(C)(C)OC(=O)N1[C@H](CO)[C@@H](O)[C@@H](O)[C@@H]1c1cc(N)c2c(N)ncnn12 [Compound I-024],6.47,3.83
Cn1ccc(-c2cc([C@H]3[C@@H]4OC(C)(C)O[C@@H]4[C@@H](CO)N3C(=O)OC(C)(C)C)n3ncnc(N)c23)n1 [Compound I-030],>65.4,
CC(O)c1cc([C@@H]2N[C@H](CO)[C@@H](O)[C@H]2O)c2ncnc(N)n12 (some centres unmarked) [Compound I-038],>113,
N#C[C@@]1(c2c[nH]c3c(N)ncnc23)O[C@H](CO)[C@@H](O)[C@H]1O [Compound I-048],,>12.2
